In article PMC7843721:
Changes are numbered by the printed parent chain. For at least one entry, the source does not settle the construct or the ends of the probe. Tags and fusion partners may be left off the protein sequences shown.

How the values were obtained:
Assay in all cases: EMSA
MtrA K108Q = molecular target: T1, MtrA K108Q (UniProt P9WGM7); conditions: no AcP, no change vs WT; recombinant protein; protein details: 6xHis; label: 32P 5'-end; probe letters rebuilt from the primers and the genome
T1 sequence (looked up, limits assumed): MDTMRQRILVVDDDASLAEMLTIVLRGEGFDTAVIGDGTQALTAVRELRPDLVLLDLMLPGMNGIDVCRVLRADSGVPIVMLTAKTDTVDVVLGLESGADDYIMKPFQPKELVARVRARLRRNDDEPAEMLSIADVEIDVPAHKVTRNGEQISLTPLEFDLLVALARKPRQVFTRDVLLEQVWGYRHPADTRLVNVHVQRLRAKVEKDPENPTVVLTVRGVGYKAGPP

MtrA K108R = molecular target: T2, MtrA K108R (UniProt P9WGM7); conditions: no AcP, similar to WT; recombinant protein; protein details: 6xHis; label: 32P 5'-end; probe letters rebuilt from the primers and the genome
T2 sequence (looked up, limits assumed): T1 sequence (looked up, limits assumed) with Q108R

MtrA K110R = molecular target: T3, MtrA K110R (UniProt P9WGM7); conditions: no AcP, similar to WT; recombinant protein; protein details: 6xHis; label: 32P 5'-end; probe letters rebuilt from the primers and the genome
T3 sequence (looked up, limits assumed): T1 sequence (looked up, limits assumed) with Q108K, K110R

MtrA K110R K207R = molecular target: T4, MtrA K110R K207R (UniProt P9WGM7); conditions: recombinant protein, protein details: 6xHis, label: 32P 5'-end, probe letters rebuilt from the primers and the genome
T4 sequence (looked up, limits assumed): T1 sequence (looked up, limits assumed) with Q108K, K110R, K207R

MtrA K207R = molecular target: T5, MtrA K207R (UniProt P9WGM7); conditions: no AcP, similar to WT; recombinant protein; protein details: 6xHis; label: 32P 5'-end; probe letters rebuilt from the primers and the genome
T5 sequence (looked up, limits assumed): T1 sequence (looked up, limits assumed) with Q108K, K207R

Measured: binding result

TTGCGCCCTTTCACCTCACGATGAGTTCGATCCCGTGGCTAGCGCCCCGCTAGCGTGGGGACTGCCAACGACGAATGCCCATGACGCGTGACCCGCCACGACGGCCGCAACAGCAGTCGAACAACAACCGTAGAGCTTCTCACGTCAACTTGAAAGTTCATCATTGACCTCTGACCCACCGCGACGAGCCAGTTATGCGGGTGGTATCCAGCGAACGATCCCCAGCGCTGTCTTTCCAAGAACAAACGACGAAGAAATCTCGGTAACAGTATTAGAGGGTGTGCAGTTTGGGGACAGTCTGGTCTTGGTGCAGGTCGACGTCGGTCGGAGTTGTGGATGACGGTGGCGATGACTGTGGGGTGTGTGTTGGGTCGGTGGGGATGAGGCGTGGGTTGTGAACGGAACCGCCGGGACTGTATGAGTCTGTGCGCGGTTTGTGCACAGCGACACTCACAGCCAATCTCTGTGACTGGTGTGACCTGGGAGAGAGAAGTTTTTTTAAGAACGTTGTCGGAAGAACACGCCGTGCTAGCGCTTGGAGCGCTGACGGATG (double strand) [oriC 526 bp]
binds: MtrA K108Q | MtrA K108R | MtrA K110R | MtrA K110R K207R; no AcP, similar to WT | MtrA K110R K207R; with AcP, no impact | MtrA K207R

GATCGTCGACCATCGGTGATTGGGTCTGATGAAGTTTGGTAAGTAGAGTCAACGCGCTATATCCCCGACCTCGGCAACACTCAACCACCTACACAGCGAACAAAAAGCAAAATGGGCCCTCCGAAACCTAGAGGCCCCACCCGTTCGATCACAAGACGGTAACGAACCGGCCAATGTTGAGCAACTCCGGCGCGCGGGTGTTATGGGCCGCTCGGCGCGCTCATTGGCGCATCCACCCTAGCCCATAAGCTCGGCGAGCGTTGCTTGTGGTGATGAGCGCCACCTCTTCGGGGCGCCGATTGACCAGTTCAGCCAGCGCCCGCACGGTATAGGGCAGGCAGTACGGTTCGTTCGCCAAGCCCCGGTGGGGATGCGGGGTCAAATACGGTGCATCGGTTTCCACCAAAAGCTGCTCCACCGGCATCAGCGGGACGGCTTCCCGTAGTTCACGGGCGGTACGGAGAATTCGATC (double strand) [rpfB promoter 440 bp]
binds: MtrA K108Q | MtrA K108R | MtrA K110R | MtrA K110R K207R; no AcP, similar to WT | MtrA K110R K207R; with AcP (5 mM), no impact | MtrA K207R
